Experimental data taken from the supplement of paper PMC9931576.
Human monoclonal antibodies against the spike receptor-binding domain (heavy:light variable regions). IC50 against pseudoviruses bearing the spike of naturally observed variants; lower = stronger; >10 µg/ml means not reached at the top dose. No active / inactive call. The stated detection limit is 0.0005 µg/ml; values near or below 0.001 µg/ml lie at the floor of the assay.

Columns and labels:
Assay in all cases: pseudovirus neutralization IC50; higher = weaker neutralization
[1] = target: SARS-CoV-2 Omicron BA.1 spike pseudovirus
Experimental: (§1)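 Single-round VSV luciferase pseudovirus mixed with antibody dilutions for 1 h and put on Huh-7 cells for about a day; IC50 from the dose curve.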

[2] = target: SARS-CoV-2 Omicron BA.2 spike pseudovirus
Experimental: as §1

[3] = target: SARS-CoV-2 Omicron BA.2.75 spike pseudovirus
Experimental: as §1

[4] = target: SARS-CoV-2 Omicron BA.5 spike pseudovirus
Experimental: as §1

[5] = target: SARS-CoV-2 Omicron BQ.1.1 spike pseudovirus
Experimental: as §1

[6] = target: SARS-CoV-2 Omicron XBB spike pseudovirus
Experimental: as §1

[7] = target: SARS-CoV-2 early D614G spike pseudovirus
Experimental: as §1

| Binder | pseudovirus neutralization IC50 [1] [µg/mL] | pseudovirus neutralization IC50 [2] [µg/mL] | pseudovirus neutralization IC50 [3] [µg/mL] | pseudovirus neutralization IC50 [4] [µg/mL] | pseudovirus neutralization IC50 [5] [µg/mL] | pseudovirus neutralization IC50 [6] [µg/mL] | pseudovirus neutralization IC50 [7] [µg/mL] |
| --- | --- | --- | --- | --- | --- | --- | --- |
| BD56-1750 (protein) chain 1: EVQLVASGGGLVQPGGSLRLSCAASGFTFSSYDMHWVRQATGKGLEWVSVIGTAGDTYYEDSVKGRFTISREDAKNALSLQMNSLRAGDTAVYYCTRGTFDSGNFVSWFDPWGQGTLVTVSS chain 2: DIQMTQSPSSLSASVGDRVTISCRASQSIRNYLNWYQQKPGKAPKLLIYSASNLQSGVPSRFSGVGSGTDFTLTIRSLQPEDIATYYCQQSYNIPPWTFGQGTKVEIK | > 10 | > 10 | > 10 | > 10 | > 10 | > 10 | > 10 |
| COV2-2678 (protein) chain 1: EVQLVESGGGVVRPGGSLRLSCAASGFIFDDYDMTWVRQAPGKGLEWVSGISWNGGNTGYADSVKGRFTISRDNAKNSLYLQMNSLRAEDTALYHCAVIMSPIPRYSGYDWAGGAFDIWGQGTMVTVSS chain 2: SSELTQDPAVSVALGQTVRITCQGDSLRSYYASWYQQKPGQVPILVIYDKNNRPSGIPDRFSGSSSGNTASLTITGAQAEDEADYYCNSRDSSGNAVVFGGGTKLTVL | > 10 | > 10 | > 10 | > 10 | > 10 | > 10 | 0.424 |
| BD56-1754 (protein) chain 1: QVQLVQSGAEVKKPGSSVKVSCSASGDTFTRYAINWVRQAPGQGPEWMGRIIPMFGMSNYAQKFQGRVTMTADKSTRTAYMELNSLRNEDTAVFYCATSAYFSDSDGFYFEYWGRGTLVTVSS chain 2: EIVLTQSPGTLSLSPGERATLSCRASETVDGNYLAWYQQKPGQAPRLLIYGASIRATGIPDRFSGSGSGTDFSLTISRLEPEDFAVYYCQQYAYSPRAFGQGTKVEIK | 0.000889 | 0.00187 | 0.000725 | 2.87 | > 10 | > 10 | 0.000613 |
| BD56-1755 (protein) chain 1: EVQLLESGGGLVQPGGSLRLSCEASGFSFSSSVMNWVRQAPGEGLEWVSSITGTGGSTFYADSVKGRFTVSRDNSRNTLYLQMNSLRAGDTAVYFCARDQGFLEWLLTDYFYDYHMDVWGKGTTVTVSS chain 2: DVVMTQSPLSLSVTLGQPASISCRSSQSLVHSDGNTYLNWFQQRPGQSPRRLIYKVSNRDSGVPDRFSGSGSGTDFTLKVSRVEAEDVGVYYCMQGTHWPPAFGQGTKVEIK | 2.38 | 2.19 | 3.18 | 4.94 | 6.31 | 3.24 | 1.21 |
| BD56-1757 (protein) chain 1: QITLKESGPTLVKPTQTLTLTCTFSGISLSTRAVGVGWIRQPPGKALEWLALIYWDDDKRYSPSLKSRLTITRDTSKKQVVLTMTNMDPMDTATYYCAHRLPGVPMGWFDPWGPGTLVTVSS chain 2: SYVLTQPPSVSVAPGKTAMITCGGDSIGSKSVHWYRQKPGQAPVLVMYYDSERPSGIPERFSGSNSGPNPGETATLTISRVEAGDEADYYCQVWDIASDHPVFGGGTKLTVL | 0.523 | 0.94 | 0.409 | > 10 | > 10 | 1.56 | 1.08 |
| BD56-1760 (protein) chain 1: QVQLQESGPGLVKPSQTLSLTCTVSGGSISSGGYYWSWVRQLPGKGLEWIGYIFYSGINYYNPSLKSRVTMSVDTSKNQFSLNLTSVTAADTAVYYCARDSSGGDDAFDIWGQGTLVTVSS chain 2: DIQMTQSPSSLSASMGDRVTITCRASQDINNYLAWFQQKPGKAPKSLIYAASRLRSGVPSKFSGSGSGTDFTLTISSLQPEDFATYYCQQYNTYPYTFGQGTRLEIK | 0.891 | 1.35 | 1.49 | 6.41 | > 10 | > 10 | 0.602 |
| BD56-1762 (protein) chain 1: EVQLVESGGGLVQTGRSLRLSCTASGFPFDDYAIHWVRQAPGKGLEWVSGISWNGGVIGYADSLKGRCIISRDNAKNSLYLQMYSLRPEDTALYYCVKDMSGGDHQYYFDYWGQGTLVTVSS chain 2: SYVLTQAPSVSVAPGETARITCGGNSIGSKSVHWYQQRPGQAPVLVVYDDNDRPSGIPERFSGSNSGNTATLTISRVEAGDEADYYCQVWDRSSDLYVFGTGTKVTVL | 0.0103 | 0.00934 | 0.00436 | 0.063 | > 10 | 2.44 | 0.0117 |
| BD56-1763 (protein) chain 1: QLQLRESGPGLVKPSETLSLTCSVSAGSISSSIYYWGWIRQPPGKGLEWIVSIHYSGSTYNNPSLKSRVTISVDTSKNQLSLKLSSVTAADTAVYYCARHGVARFGNLPFFDYWGQGSLVTVSS chain 2: SSVLTQPPSVSVAPGKTARITCGGNNIGSKSVHWYQQKPGQAPVLVMYYDSDRPSGIPERFSGSNSGNTATLTINRVEAGDEADYYCQVWDSSSDVVFGGGTKLTVL | 0.0818 | 0.102 | 0.0675 | > 10 | > 10 | > 10 | 0.116 |
| BD56-1765 (protein) chain 1: QVQLVQSGAEVRKPGSSVKVSCKASGGTFSSYTFTWVRQAPGQGLEWMGRIIPILDISNYAQEFQGRVTITADKLSNTVYMELPSLISKDTAVYYCARERNAGHSSGSNYYFDPWGPGTLVTVSS chain 2: QSVLTQPPSVSGAPGQRVTIPCTGSNSNIGAGYEVHWYQQLPGMSPKLLIYGDSNRPSGVPDRFSGSKSGTSASLAISGLQGEDEADYYCQSYDSGLSDSVFGGGTKLTVL | 0.0575 | 0.0312 | 0.027 | > 10 | > 10 | > 10 | 0.241 |
| BD56-1768 (protein) chain 1: QVQLVQSGAEVKKPGSSVKVSCKPSGGTFSYTINWVRQAPGQGLEWMGGIITLLGVANYAQNFQGRVTITADKSSSTAYMELTSLRSEDTAVYYCAREWPNCSSTSCYRWWGQGTLVTVSS chain 2: QSVLTQPPSVSGAPGQRVTISCTGSNSNIGAGYDVHWYQQLPGTAPKLLIYGNSNRPSGVPDRFSGSKSGTSASLAITGLQAEDEADYYCQSYDSSLSGSVFGGGTKLTVL | 0.0352 | 0.0262 | 0.022 | > 10 | > 10 | 1.58 | 0.139 |
| BD56-1770 (protein) chain 1: QVQLVQSGTEVKNPGSSVKVSCKASGDTFSRFAINWVRQAPGQGPEWMGRIIPMFGMTNYAQKFQGTVSITADKSTSTAYMEVSGLRSEDTAVYYCATSAFYYGSRGYYLDSWGQGTLVTVSS chain 2: EIVLTQSPGTLSLSPGERTTLSCRASQNVSSNYIAWYQQKPGQAPRLLIYGASNRATGIPARFSGSGSGTDFTLTISRLEPEDFAVYYCYQYHNSPRTFGQGTRVEIK | 0.144 | 0.129 | 0.00279 | > 10 | > 10 | > 10 | 0.00294 |
| BD56-1772 (protein) chain 1: QVQLVQSGAEVKRPGSSVKVSCKASGGTFSSYPITWVRQAPGLGPEWMGSIIPILGAGDYAQSLQGRVTITADKSTGTAFMELSSLRSADTAVYYCALARGYSASGSSYYFDNWGQGTLVTVSS chain 2: QSVLTQPPSVSGAPGQRVTISCTGSSSNIGAGYDVHWYQQLPGAAPKLLIYANTNRPSGVPDRFSGSKSGTSASLAITGLQAEDEADYYCQSYDSSLSGSVFGGGTKLAVL | 0.089 | 0.0399 | 0.0805 | 0.464 | 1.28 | 1.08 | 0.366 |
